Patent US10160867B2, “Benzoxaborole-containing coating resistant to cellulose-supportable fungus” (THE PENN STATE RESEARCH FOUNDATION, priority 2015, dated 2018)
Converted amounts (≈) assume the structure as drawn.

Tests used:
[1] = tested on: Alternaria alternata; test: 3 day MIC, broth microdilution in 25% PDB; format: cell-based; conditions: 72 h, read-out: 3 day MIC
Protocol: (§1) Stock solutions (concentrations of between 4,000 μg/mL to 10,000 μg/mL; stored at −18° C.) of the above antifungals were prepared in dimethyl sulfoxide (DMSO). The stock solutions were further diluted into sterile 25% potato dextrose broth (PDB) so that the diluted solutions could be used for the antifungal susceptibility studies. This way, a typical microdilution study would reach a final ratio of about 0.5-2% v/v of DMSO in 25% PDB.
Spore inocula were prepared in sterile distilled water with 0.1% Tween® 20 (a polysorbate surfactant), and a hemocytometer was used to determine the spore density. Typically, the spore inoculum was prepared fresh prior to each study, and the inoculum was appropriately diluted to a final concentration of 0.4-1×10^5 spores/mL or colony-forming unit (CFU)/mL in each study. The spore suspension can be stored in a refrigerator at 4° C. for up to one week.
The studies were performed in flat bottom, 96-well microtiter plates (Greiner Bio-One, Frickenhausen, Germany).
(§2) Plates sealed with clear polyester film (VWR, Radnor, Pa.) were incubated at a temperature of about 25° C. The progress of fungal growth was monitored at 48 hours and 72 hours.

[2] = tested on: Fusarium oxysparum ST-33; test: 3 day MIC, broth microdilution in 25% PDB; format: cell-based; conditions: ST33, 72 h, read-out: 3 day MIC
Protocol: as §1
Spore inocula were prepared in sterile distilled water with 0.1% Tween® 20 (a polysorbate surfactant), and a hemocytometer was used to determine the spore density. […]
The minimal inhibitory concentrations (MICs) for individual antifungal agents were determined by following a modified broth microdilution protocol CLSI (Clinical and Laboratory Standards Institute) M38-A2 [Clinical and Laboratory Standards Institute (2008) Reference method for broth dilution antifungal susceptibility testing of filamentous fungi—2nd edition: Approved Standard M38-A2, CLSI, Wayne, Pa.] where 25% potato dextrose broth (PDB) was used as the medium. […]
as §2

Which MIC [1] does the source give for `OB1OCc2ccccc21` [Compound B0, 2-(hydroxymethyl)-benzene boronic acid hemiester] here?
Its MIC is 12.5 µg/mL (≈ 93.3 µM).

What about the MIC [2] of the same compound?
Its MIC is 1 µg/mL (≈ 7.47 µM).
